From patent US8779141B2, “Viral inhibitors” (Gilead Sciences, Inc., priority 2002, dated 2014)

system: BVDV-1 (strain PE515); assay: Anti-BVDV assay, virus-induced cytopathic effect in MDBK cells (MTS); format: cell-based, Bovine Viral Diarrhea Virus; settings: Table 9; SI: IC50/EC50 (MDBK growth / anti-BVDV)
Procedure: (§1) Madin-Darbey Bovine Kidney (MDBK) cells were maintained in Dulbecco's modified Eagle medium (DMEM) supplemented with BVDV-free 5% fetal calf serum (DMEME-FCS) at 37° C. in a humidified, 5% CO2 atmosphere. BVDV-1 (strain PE515) was used to assess the antiviral activity in MDBK cells. Vero cells were maintained in the same way as MDBK cells. Vero cells were infected with Coxsackie B3 virus (strain Nancy).
Ninety-six-well cell culture plates were seeded with MDBK cells in DMEM-FCS so that cells reached 24 hr later confluency. Then medium was removed and serial 5-fold dilutions of the test compounds were added in a total volume of 100 ul, after which the virus inoculum (100 ul) was added to each well. […] Uninfected cells and cells receiving virus without compound were included in each assay plate. After 5 days, medium was removed and 90 μl of DMEM-FCS and 10 ul of MTS/PMS solution (Promega) was added to each well. Following a 2 hr incubation period at 37° C. the optical density of the wells was read at 498 nm in a microplate reader.

Row | Structure (SMILES) | SI
1 | Fc1ccc(Cn2ccc3nc(-c4c(F)cccc4F)nc-3c2)c(F)c1 [GPJN-40, 2-(2,6-Difluorophenyl)-5-[(2,4-difluorophenyl)methyl]-5H-imidazo[4,5-c]pyridine] | >400
2 | COc1cccc(-c2nc3ccn(Cc4ccc(Br)cc4)cc-3n2)c1 [GPJN-64, 5-[(4-Bromophenyl)methyl]-2-(3-methoxyphenyl)-5H-imidazo[4,5-c]pyridine] | >3846
3 | CCc1nc2ccn(Cc3ccc(Br)cc3)cc-2n1 [GPJN-48, 5-[(4-Bromophenyl)methyl]-2-ethyl-5H-imidazo[4,5-c]pyridine] | >285
4 | Fc1cccc(F)c1Cn1ccc2nc(-c3c(F)cccc3F)nc-2c1 [GPRTI-8, 2-(2,6-Difluorophenyl)-5-[(2,6-difluorophenyl)methyl]-5H-imidazo[4,5-c]pyridine] | >576
5 | Fc1cccc(F)c1-c1nc2ccn(Cc3ccc(Cl)c(Cl)c3)cc-2n1 [GPC-10, 5-[(3,4-Dichlorophenyl)methyl]-2-(2,6-difluorophenyl)-5H-imidazo[4,5-c]pyridine] | 62.5
6 | c1ccc(CCCn2ccc3nc(-c4ccccc4)nc-3c2)cc1 [GPJN-14, 2-Phenyl-5-(3-phenylpropyl)-5H-imidazo[4,5-c]pyridine] | 573
7 | Fc1cccc(Cn2ccc3nc(-c4ccccc4)nc-3c2)c1 [GPJN-18, 5-[(3-Fluorophenyl)methyl]-2-phenyl-5H-imidazo[4,5-c]pyridine] | 2933
8 | Cc1ccccc1Cn1ccc2nc(-c3ccccc3)nc-2c1 [GPJN-20, 5-[(2-Methylphenyl)methyl]-2-phenyl-5H-imidazo[4,5-c]pyridine] | 169
9 | Clc1ccccc1-c1nc2ccn(Cc3ccc(Br)cc3)cc-2n1 [GPJN-54, 5-[(4-Bromophenyl)methyl]-2-(2-chlorophenyl)-5H-imidazo[4,5-c]pyridine] | 349
10 | COc1ccccc1Cn1ccc2nc(-c3ccccc3)nc-2c1 [GPJN-11, 5-[(2-Methoxyphenyl)methyl]-2-phenyl-5H-imidazo[4,5-c]pyridine] | 1135
11 | c1ccc(OCCn2ccc3nc(-c4ccccc4)nc-3c2)cc1 [GPJN-73, 5-(2-Phenoxyethyl)-2-phenyl-5H-imidazo[4,5-c]pyridine] | >5882
12 | C(=Cc1ccccc1)Cn1ccc2nc(-c3ccccc3)nc-2c1 [GPJN-75, 2-Phenyl-5-(3-phenyl-2-propenyl)-5H-imidazo[4,5-c]pyridine] | 1761
13 | c1ccc(-c2nc3ccn(Cc4ccc5ccccc5c4)cc-3n2)cc1 [GPJN-26, 5-(2-Naphthalenylmethyl)-2-phenyl-5H-imidazo[4,5-c]pyridine] | >2439
14 | Brc1ccc(Cn2ccc3nc(-c4cccs4)nc-3c2)cc1 [GPJN-53, 5-[(4-Bromophenyl)methyl]-2-(2-thienyl)-5H-imidazo[4,5-c]pyridine] | 2028
15 | c1ccc(-c2nc3ccn(Cc4cccnc4)cc-3n2)cc1 [GPJN-35, 2-Phenyl-5-(3-pyridinylmethyl)-5H-imidazo[4,5-c]pyridine] | >273
16 | COc1cccc(Cn2ccc3nc(-c4ccccc4)nc-3c2)c1 [GPJN-12, 5-[(3-Methoxyphenyl)methyl]-2-phenyl-5H-imidazo[4,5-c]pyridine] | 949
17 | Cc1cccc(-c2nc3ccn(Cc4ccc(Br)cc4)cc-3n2)c1 [GPJN-60, 5-[(4-Bromophenyl)methyl]-2-(3-methylphenyl)-5H-imidazo[4,5-c]pyridine] | 5133

Row | Structure (SMILES) | SI
18 | c1ccc(-c2nc3ccn(Cc4ccncc4)cc-3n2)cc1 [GPJN-31, 2-Phenyl-5-(4-pyridinylmethyl)-5H-imidazo[4,5-c]pyridine] | >222
19 | Fc1cccc(-c2nc3ccn(Cc4ccc(Br)cc4)cc-3n2)c1 [GPJN-50, 5-[(4-Bromophenyl)methyl]-2-(3-fluorophenyl)-5H-imidazo[4,5-c]pyridine] | >4760
20 | CC(C)=CCn1ccc2nc(-c3ccccc3)nc-2c1 [GPJN-28, 5-(3-Methyl-2-butenyl)-2-phenyl-5H-imidazo[4,5-c]pyridine] | >230
21 | c1ccc(-c2ccc(Cn3ccc4nc(-c5ccccc5)nc-4c3)cc2)cc1 [GPJN-32, 5-([1,1′-Biphenyl]-4-ylmethyl)-2-phenyl-5H-imidazo[4,5-c]pyridine] | 741
22 | Fc1ccc(Cn2ccc3nc(-c4cc(F)ccc4F)nc-3c2)c(F)c1 [GPC-13, 2-(2,5-Difluorophenyl)-5-[(2,4-difluorophenyl)methyl]-5H-imidazo[4,5-c]pyridine] | >1492
23 | COc1ccc(Cn2ccc3nc(-c4ccccc4)nc-3c2)cc1 [GPJN-13, 5-[(4-Methoxyphenyl)methyl]-2-phenyl-5H-imidazo[4,5-c]pyridine] | 1058
24 | Cc1cccc(Cn2ccc3nc(-c4ccccc4)nc-3c2)c1 [GPJN-21, 5-[(3-Methylphenyl)methyl]-2-phenyl-5H-imidazo[4,5-c]pyridine] | 1020
25 | CC(c1ccccc1)n1ccc2nc(-c3ccccc3)nc-2c1 (stereo not shown) [GPJN-33, 2-Phenyl-5-(1-phenylethyl)-5H-imidazo[4,5-c]pyridine] | 350
26 | Fc1ccc(Cn2ccc3nc(-c4ccccc4)nc-3c2)cc1 [GPJN-19, 5-[(4-Fluorophenyl)methyl]-2-phenyl-5H-imidazo[4,5-c]pyridine] | 3012
27 | CCCN(CCC)CCSc1nnc2c(n1)[nH]c1ccccc12 [VP32947, 3-[((2-dipropylamino)ethyl)thio]-5H-1,2,4-triazino[5,6-b]indole, reference compound] | >16785
28 | Clc1ccc(Cn2ccc3nc(-c4ccccc4)nc-3c2)s1 [GPJN-25, 5-[(5-Chloro-2-thienyl)methyl]-2-phenyl-5H-imidazo[4,5-c]pyridine] | 4138
29 | Fc1cccc(-c2nc3ccn(Cc4ccc(F)cc4F)cc-3n2)c1 [GPC-11, 5-[(2,4-Difluorophenyl)methyl]-2-(3-fluorophenyl)-5H-imidazo[4,5-c]pyridine] | >178
30 | Brc1ccc(Cn2ccc3nc(-c4ccc5ccccc5c4)nc-3c2)cc1 [GPJN-63, 5-[(4-Bromophenyl)methyl]-2-(2-naphthalenyl)-5H-imidazo[4,5-c]pyridine] | 1023
31 | c1ccc(-c2nc3ccn(Cc4cccc5ccccc45)cc-3n2)cc1 [GPJN-36, 5-(1-Naphthalenylmethyl)-2-phenyl-5H-imidazo[4,5-c]pyridine] | 1297
32 | Brc1ccc(Cn2ccc3nc(-c4cccc(Br)c4)nc-3c2)cc1 [GPJN-65, 2-(3-Bromophenyl)-5-[(4-bromophenyl)methyl]-5H-imidazo[4,5-c]pyridine] | >10.000
33 | Fc1cc(F)c(Cn2ccc3nc(-c4c(F)cccc4F)nc-3c2)c(F)c1 [GPJN-41, 2-(2,6-Difluorophenyl)-5-[(2,4,6-trifluorophenyl)methyl]-5H-imidazo[4,5-c]pyridine] | >172

same assay, conditions: Table 10; SI: MTC/EC50

Row | Structure (SMILES) | SI
34 | c1ccc(-c2ccc(Cn3ccc4nc(-c5cccc6ccccc56)nc-4c3)cc2)cc1 [GPJN-115, 5-([1,1′-Biphenyl]-4-ylmethyl)-2-(1-naphthalenyl)-5H-imidazo[4,5-c]pyridine] | 17
35 | Brc1cccc(-c2nc3ccn(CCOc4ccccc4)cc-3n2)c1 [GPJN-100, 2-(3-Bromophenyl)-5-(2-phenoxyethyl)-5H-imidazo[4,5-c]pyridine] | 227
36 | Cc1cn(Cc2ccc(Br)cc2)cc2nc(-c3ccccc3)nc1-2 [GPJN-104, 5-[(4-Bromophenyl)methyl]-7-methyl-2-phenyl-5H-imidazo[4,5-c]pyridine] | 74

system: HCV replicon in Huh-5-2 cells; assay: Anti-HCV replicon assay, luciferase activity in Huh-5-2 cells; format: cell-based, Hepatitis C Virus; settings: Table 11; HCV-Huh-5-2 replicon cells; ratio CC50 / EC50
Procedure: Cells were seeded at a density of 7000 cells per well in 96 well View Plate™ (Packard) in medium containing the same components as described above, except for G418. Cells were allowed to adhere and proliferate for 24 hr. At that time, culture medium was removed and serial dilutions of the test compounds were added in culture medium lacking G418. Interferon alfa 2a (500 IU) was included as a positive control. Plates were further incubated at 37° C. and 5% CO2 for 72 hours. Replication of the HCV replicon in Huh-5 cells results in luciferase activity in the cells. Luciferase activity is measured by adding 50 μl of 1× Glo-lysis buffer (Promega) for 15 minutes followed by 50 ul of the Steady-Glo Luciferase assay reagent (Promega). Luciferase activity is measured with a luminometer and the signal in each individual well is expressed as a percentage of the untreated cultures. […] Instead the density of the culture is measured by means of the MTS method (Promega).

Row | Structure (SMILES) | SI
37 | Clc1c2nc(-c3ccccc3)nc-2ccn1Cc1ccc(Br)cc1 [GPJN-96, 5-[(4-Bromophenyl)methyl]-4-chloro-2-phenyl-5H-imidazo[4,5-c]pyridine] | 3

system: Coxsackie B3 virus (strain Nancy); assay: Anti-coxsackie virus assay, cytopathic effect in Vero cells (MTS); format: cell-based; settings: Table 13; SI: IC50/EC50
Procedure: as §1
Ninety-six-well cell culture plates were seeded with Vero cells in DMEM medium containing 10 fetal calf serum (FCS) so that cells reached confluency 24-48 hr later. Medium was then removed and serial 5-fold dilutions of the test compounds were added in a total volume of 100 ul, after which the virus inoculum (100 μl) was added to each well. […] Uninfected cells and cells receiving virus without compound were included in each asay plate. After 5 days, the medium was removed and 90 μl of DMEM-FCS and 10 μl of MTS/PMS solution (Promega) was added to each well. Following a 2 hr incubation period at 37° C., the optical density of the wells was read at 498 nm in a microplate reader. The 50% effective concentration (EC50) value was defined as the concentration of compound that protects 50% of the cell monolayer from virus-induced cytopathic effect.

Row | Structure (SMILES) | SI
38 | Fc1ccc(Cn2ccc3nc(-c4c(F)cccc4F)nc-3c2)c(F)c1 [GPJN-40, 2-(2,6-Difluorophenyl)-5-[(2,4-difluorophenyl)methyl]-5H-imidazo[4,5-c]pyridine] | 11.2
39 | COc1cccc(-c2nc3ccn(Cc4ccc(Br)cc4)cc-3n2)c1 [GPJN-64, 5-[(4-Bromophenyl)methyl]-2-(3-methoxyphenyl)-5H-imidazo[4,5-c]pyridine] | 3.5
40 | Fc1cccc(F)c1Cn1ccc2nc(-c3c(F)cccc3F)nc-2c1 [GPRTI-8, 2-(2,6-Difluorophenyl)-5-[(2,6-difluorophenyl)methyl]-5H-imidazo[4,5-c]pyridine] | 8.48
41 | Fc1cccc(F)c1-c1nc2ccn(Cc3ccc(Cl)c(Cl)c3)cc-2n1 [GPC-10, 5-[(3,4-Dichlorophenyl)methyl]-2-(2,6-difluorophenyl)-5H-imidazo[4,5-c]pyridine] | 32.59
42 | Cc1cccc(-c2nc3ccn(Cc4ccc(Br)cc4)cc-3n2)c1 [GPJN-60, 5-[(4-Bromophenyl)methyl]-2-(3-methylphenyl)-5H-imidazo[4,5-c]pyridine] | 16.4
43 | Fc1cccc(-c2nc3ccn(Cc4ccc(Br)cc4)cc-3n2)c1 [GPJN-50, 5-[(4-Bromophenyl)methyl]-2-(3-fluorophenyl)-5H-imidazo[4,5-c]pyridine] | 11.8
44 | c1ccc(-c2ccc(Cn3ccc4nc(-c5ccccc5)nc-4c3)cc2)cc1 [GPJN-32, 5-([1,1′-Biphenyl]-4-ylmethyl)-2-phenyl-5H-imidazo[4,5-c]pyridine] | 15.4
45 | Fc1cccc(-c2nc3ccn(Cc4ccc(F)cc4F)cc-3n2)c1 [GPC-11, 5-[(2,4-Difluorophenyl)methyl]-2-(3-fluorophenyl)-5H-imidazo[4,5-c]pyridine] | 21.0
46 | Fc1ccc(Cn2ccc3nc(-c4c(F)ccc(F)c4F)nc-3c2)c(F)c1 [GPC-12, 5-[(2,4-Difluorophenyl)methyl]-2-(2,3,6-trifluorophenyl)-5H-imidazo[4,5-c]pyridine] | 27.7
